Holding throughout (assay): flow cytometry, labelled α-bungarotoxin on transfected HEK293T cells
A general note: A flow cytometer gives signals particle by particle.

The target of assay [1] is T1, engineered receptor L131D, S172D in SEQ ID NO: 33 (human (chimera of human α7-nAChR ligand …)).
T1 chain: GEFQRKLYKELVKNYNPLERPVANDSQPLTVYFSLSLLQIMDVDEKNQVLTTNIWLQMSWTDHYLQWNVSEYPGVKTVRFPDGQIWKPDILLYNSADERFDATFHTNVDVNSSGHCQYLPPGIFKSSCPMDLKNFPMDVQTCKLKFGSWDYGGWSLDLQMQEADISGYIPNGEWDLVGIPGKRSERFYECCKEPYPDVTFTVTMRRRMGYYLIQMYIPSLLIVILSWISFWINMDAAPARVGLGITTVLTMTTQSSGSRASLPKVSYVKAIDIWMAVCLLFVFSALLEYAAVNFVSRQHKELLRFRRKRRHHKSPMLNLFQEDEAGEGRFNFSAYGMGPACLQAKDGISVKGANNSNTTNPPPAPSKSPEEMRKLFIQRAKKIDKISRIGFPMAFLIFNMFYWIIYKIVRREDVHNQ

Assay [2] addresses T2, engineered receptor L131S, S172D in SEQ ID NO: 33 (human (chimera of human α7-nAChR ligand …)).
T2 chain: T1 chain with D109S

For assay [3], the target named is T3, engineered receptor Y115D, S170T in SEQ ID NO: 33 (human (chimera of human α7-nAChR ligand …)).
T3 chain: T1 chain with Y93D, D109L, S148T, D150S

The target in assay [4] is T4, engineered receptor Y115D, L131E in SEQ ID NO: 33 (human (chimera of human α7-nAChR ligand …)).
T4 chain: T1 chain with Y93D, D109E, D150S

Assay [5] has as its target T5, engineered receptor L131T, S172D in SEQ ID NO: 33 (human (chimera of human α7-nAChR ligand …)).
T5 chain: T1 chain with D109T

The target of assay [6] is T6, engineered receptor Y115D, L131Q in SEQ ID NO: 33 (human (chimera of human α7-nAChR ligand …)).
T6 chain: T1 chain with Y93D, D109Q, D150S

Substitutions are numbered along the chain they refer to.

B1: α-bungarotoxin conjugated to Alexa Fluor 647 (ligand)
chain: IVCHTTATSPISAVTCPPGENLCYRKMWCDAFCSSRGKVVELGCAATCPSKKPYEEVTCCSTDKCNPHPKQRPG
Turning to B1, the “Normalized AB %” value was 45 % of α-bungarotoxin positive cells, normalized to SEQ ID NO: 33 control in assay [1]; 17 % of α-bungarotoxin positive cells, normalized to SEQ ID NO: 33 control in assay [3]; 73 % of α-bungarotoxin positive cells, normalized to SEQ ID NO: 33 control in assay [4]; 32 % of α-bungarotoxin positive cells, normalized to SEQ ID NO: 33 control in assay [5]; 35 % of α-bungarotoxin positive cells, normalized to SEQ ID NO: 33 control in assay [6]. Moreover, the “Normalized AB MFI” value in assay [1] was 0.88 ratio to SEQ ID NO: 33 control; in assay [2] it was 0.83 ratio to SEQ ID NO: 33 control; in assay [3], 0.64 ratio to SEQ ID NO: 33 control; in assay [4], 0.9 ratio to SEQ ID NO: 33 control; in assay [5], 0.75 ratio to SEQ ID NO: 33 control; in assay [6], 0.72 ratio to SEQ ID NO: 33 control.

These data come from US20220348635A1, “COMPOSITIONS AND METHODS FOR NEUROLOGICAL DISEASES” (Coda Biotherapeutics, Inc., priority 2019, published 2022).
